A mixed list of measured activities; the numbers were collected in NIAID ChemDB.

Shared fields: tests in culture; species: Herpes simplex virus 1

ECn: concentration that inhibits the pathogen or its effect by n%. An empty or dashed field is not shown. Neighbouring rows are from separate reports. Two numbers with a dash give a range or band.

smiles | strain or isolate | read by | cell line | endpoint | result
NC(N)=N/N=C1/C/C(=N\N=C(N)N)c2cc3ccccc3cc21 | 13 | virus yield | VERO | EC50 | 1.5 µM
N[C@@H]1[C@H](O)[C@@H](CO)O[C@H]1n1ccc(=O)[nH]c1=O | KOS | cytopathic effect | PRK | EC50 | >200 µg/mL
CC(=O)Oc1ccc([C@@H]2CC(=O)c3c(cc(OC(C)=O)c(-c4c(OC(C)=O)cc5c(c4OC(C)=O)C(=O)C[C@@H](c4ccc(OC(C)=O)cc4)O5)c3OC(C)=O)O2)cc1 | - | cytopathic effect | HFF | EC50 | >4 µg/mL
C/C=C\c1nc2c(N)ncnc2n1[C@H]1C[C@H](O)[C@@H](CO)O1 | KOS | cytopathic effect | ESM | EC50 | >100 µg/mL
Nc1ccn([C@@H]2O[C@H](CO)[C@@H](O)[C@@H]2O)c(=O)n1 | KOS | cytopathic effect | PRK | EC50 | 0.04 µg/mL
N#Cc1c(SCCCCSc2nsc(-c3ccccc3)c2C#N)nsc1-c1ccccc1 | - | plaque count | VERO | EC50 | >4.9 µg/mL
O=C(N/C(C(=O)N1CCCCC1)=C(/Cl)c1ccccc1)c1ccccc1 | - | - | VERO | EC50 | >81 µM
CCc1cn([C@H]2C[C@H](O)[C@@H](CO)O2)c(=O)[nH]c1=O | F-AMAU-C2 | plaque count | VERO | EC50 | >200 µM
O=c1[nH]c(=O)n([C@@H]2O[C@H](O)[C@@H](O)[C@@H]2O)cc1C#Cc1ccc2c3cccc4cccc(c5cccc1c52)c43 | KOS | - | VERO | EC50 | 0.131 µM
C[C@@H]1CC[C@]2(C(=O)O)CC[C@]3(C)C(CCC4[C@@]5(C)CC[C@H](O)C(C)(C)C5CC[C@]43C)C2[C@H]1C | - | MTT | - | EC50 | 6.2 µg/mL
O=c1[nH]c(=O)n([C@@H]2OC3COP(=O)(O)OC3[C@H]2O)cc1I | KOS | cytopathic effect | PRK | EC50 | 200 µg/mL
Cc1cn([C@@H]2O[C@H](CO)[C@@H](O)[C@@H]2F)c(=O)[nH]c1=O | F-ACV-C4 | plaque count | VERO | EC50 | 12 µM
CC(C)Nc1nc(N)nc2c1ncn2/C=C1/C[C@@H]1CO | - | plaque count | VERO | EC50 | 38 µM
Nc1nc2c(ncn2[C@@H]2C=C[C@H](CO)[C@@H](O)C2)c(=O)[nH]1 | VMW1837 (TK-/TK+) | cytopathic effect | E6SM | EC50 | 0.01 µg/mL
Nc1nc(Cl)c2ncn(/C=C3/C[C@H]3CO)c2n1 | - | cytopathic effect | HFF | EC50 | 76.4 µM
Cn1cc(CCCCOc2ccc(C(=O)O)cc2)cc1C=O | - | plaque count | VERO | EC50 | >380 µM
NC1=Nn2c(nnc2-c2cn(-c3ccccc3)nc2-c2ccccc2)SC1 | KOS | cytopathic effect | HEL | EC50 | >16 µg/mL
C=C(C[C@@H]1C(=C)CC[C@@H]2[C@@]3(C)CCC[C@@]12C(=O)OC3)c1ccoc1 | - | - | VERO | EC50 | >20 µg/mL
CSCc1cn([C@H]2C[C@H](O)[C@@H](CO)O2)c(=O)[nH]c1=O | KOS | cytopathic effect | HSF | EC50 | 1 µg/mL
CCOC(=O)c1ccc(OCCC2CCN(c3ccc(C)nn3)CC2)cc1 | - | plaque count | VERO | EC50 | >7 µg/mL
O=c1[nH]n2c(-c3cn(-c4ccccc4)nc3-c3ccccc3)nnc2sc1=O | KOS (TK-) | cytopathic effect | HEL | EC50 | >80 µg/mL
CCc1nc2c(N)ncnc2n1[C@H]1C[C@H](O)[C@@H](CO)O1 | B2006 (TK-) | cytopathic effect | ESM | EC50 | 300 µg/mL
O=C1C(=O)N([C@@H]2O[C@H](COCc3ccccc3)[C@@H](OCc3ccccc3)[C@H]2OCc2ccccc2)c2cc(Br)cc(Br)c21 | - | virus yield | VERO | EC50 | <50 µM
O=P1(O)OCC2O[C@@H](n3cnc4c(NO)ncnc43)[C@H](O)C2O1 | HF | - | - | MIC | 1 µg/mL
CCOC(=O)Sc1nsc(-c2ccccc2)c1C#N | - | plaque count | VERO | EC50 | >5.8 µg/mL
Nc1nc2c(ncn2[C@@H]2O[C@H](CO)[C@@H](O)[C@H]2N)c(=O)[nH]1 | KOS | cytopathic effect | PRK | EC50 | >200 µg/mL
O=C(Nn1c(-c2cn(-c3ccccc3)nc2-c2ccccc2)n[nH]c1=S)c1ccccc1 | KOS | cytopathic effect | HEL | EC50 | >16 µg/mL
Nc1nc(=S)c2ncn(COC(CO)CO)c2[nH]1 | F | plaque count | VERO | EC50 | >100 µM
CCCCC(C)(C)[C@H](O)/C=C/[C@H]1C=CC(=O)[C@@H]1CCCCCCC(=O)O | H198 | hybridisation | HFF | EC50 | 4.6 µg/mL
COC(=O)[C@H](C)NP(=O)(OC[C@H]1C/C1=C/n1cnc2c(OC)nc(N)nc21)Oc1ccccc1 | - | plaque count | HFF | EC50 | 1.1 µM
C[C@H]1C[C@H](O)C(Cl)/C=C\C=C\C(=O)Cc2c(Cl)c(O)cc(O)c2C(=O)O1 | Strain F | cytopathic effect | VERO | EC50 | >50 µM
C/C(=C\Cn1cc(I)c(=O)[nH]c1=O)CO | - | - | - | EC50 | >100 µg/mL
Cc1cn([C@H]2C[C@H](N=[N+]=[N-])[C@@H](CO)O2)c(=O)[nH]c1=O | KOS | cytopathic effect | PRK | EC50 | >200 µg/mL
O=P1(O)OCC2O[C@@H](n3cnc4c(SCc5ccccc5)ncnc43)[C@H](O)C2O1 | HF | - | - | MIC | 3.2 µg/mL
Nc1ccn([C@H]2O[C@@H](CO)[C@H](O)[C@H]2F)c(=O)n1 | F-FAU-C2 | plaque count | VERO | EC50 | 8.1 µM
O=C1Nc2cc(Br)cc(Br)c2C1=O | - | virus yield | VERO | EC50 | >50 µM
[N-]=[N+]=NCc1cn([C@H]2C[C@H](O)[C@@H](CO)O2)c(=O)[nH]c1=O | VEX538 | cytopathic effect | PRK | EC50 | 10 µg/mL
Nc1nc2c(ncn2COCCO)c(=O)[nH]1 | KOS | hybridisation | WI-38 | EC50 | 0.04–0.08 µM
Nc1ccn(C[C@@H](CO)OCP(=O)(O)O)c(=O)n1 | HU-3 | cytopathic effect | HEL | EC50 | 2.86 µM
O=Cc1cn([C@H]2C[C@H](O)[C@@H](CO)O2)c(=O)[nH]c1=O | McIntyre | cytopathic effect | PRK | EC50 | 0.7 µg/mL
Cn1cc(NC(=O)c2cc(NC(=O)c3cc([N+](=O)[O-])cn3C)cn2C)cc1C(=O)Nc1ccc(C(=N)N)cc1 | - | plaque count | BSC-1 | EC50 | <200 µg/mL
Nc1nc2c(ncn2C=C2CC2CO)c(=O)[nH]1 | - | cytopathic effect | HFF | EC50 | 61.7 µM
Cc1nc(N(C)C(=O)Cc2ccc(-c3ccccn3)cc2)sc1S(N)(=O)=O | KD3 | plaque count | VERO | EC50 | 0.03 µM
Cn1cc(NC(=O)c2cc(NC(=O)c3cc(NC=O)cn3C)cn2C)cc1C(=O)NCCC(=N)N | - | plaque count | BSC-1 | EC50 | <25 µg/mL
COc1ccc(-c2cc(=O)c3c(O)c(OC)c(OC)cc3o2)cc1OC | HF | plaque count | HeLa | EC50 | >200 µg/mL
CCCCCC#Cc1nc2c(N)ncnc2n1[C@H]1C[C@H](O)[C@@H](CO)O1 | KOS | cytopathic effect | ESM | EC50 | >100 µg/mL
Nc1nc2c(ncn2COC(CO)CO)c(=O)[nH]1 | - | plaque count | - | EC50 | 0.0007 µM
Nc1ncnc2c1ncn2[C@H]1C[C@H](O)[C@@H](CO)O1 | KOS | cytopathic effect | PRK | EC50 | >200 µg/mL
N#Cc1c(SCCCSc2nsc(-c3ccccc3)c2C#N)nsc1-c1ccccc1 | - | plaque count | VERO | EC50 | >4.76 µg/mL
CCOC(=O)C1=CSc2nnc(-c3cn(-c4ccccc4)nc3-c3ccccc3)n2N=C1N | KOS (TK-) | cytopathic effect | HEL | EC50 | >16 µg/mL
Nc1nccc2c1ncn2[C@@H]1C[C@H](CO)[C@@H](O)[C@H]1O | KOS | cytopathic effect | - | EC50 | >400 µg/mL
Nc1ncnc2c1ncn2[C@@H]1O[C@H](CO)[C@@H](O)[C@@H]1O | KOS | cytopathic effect | PRK | EC50 | 4 µg/mL
O=c1[nH]c(=O)n([C@H]2C[C@H](O)[C@@H](CO)O2)cc1I | KOS | cytopathic effect | HSF | EC50 | 0.4 µg/mL
Cn1cc(CCCCOc2ccc(C3=NCCO3)cc2)cc1C=O | - | plaque count | VERO | EC50 | >280 µM
Nc1nc2c(ncn2COC(CO)CO)c(=O)[nH]1 | HU-5 | cytopathic effect | HEL | EC50 | 0.014 µM
C[C@H]1C/C=C/CC/C=C/C(=O)Cc2cccc(O)c2C(=O)O1 | Strain F | cytopathic effect | VERO | EC50 | >50 µM
O=c1ccn([C@@H]2O[C@H](CO)[C@@H](O)[C@@H]2F)c(=O)[nH]1 | F-FIAU-C1 | plaque count | VERO | EC50 | >200 µM
COc1ccc(-c2oc3cc(OC)cc(O)c3c(=O)c2OC)cc1 | HF | plaque count | HeLa | EC50 | 9.5 µg/mL
COc1nc(N)nc2c1ncn2C=C1CC1CO | - | cytopathic effect | HFF | EC50 | 343 µM
O=C(NCc1ccc(Cl)cc1)c1c[nH]c2ccc(C#CCO)cc2c1=O | DJL | plaque count | - | EC50 | 11 µM
Cc1nc(N(C)C(=O)Cc2ccc(-c3ccccn3)cc2)sc1S(N)(=O)=O | 1 (KOS) | plaque count | HEF | EC50 | 0.014 µM
O=C1C(=O)N([C@@H]2O[C@H](COCc3ccccc3)[C@@H](OCc3ccccc3)[C@H]2OCc2ccccc2)c2ccc(I)cc21 | - | virus yield | VERO | EC50 | >50 µM
C#Cc1nc2c(N)ncnc2n1[C@H]1C[C@H](O)[C@@H](CO)O1 | KOS | cytopathic effect | ESM | EC50 | >4 µg/mL
Nc1ncnc2c1ncn2[C@@H]1O[C@H](CO)[C@@H](O)[C@H]1N | KOS | cytopathic effect | PRK | EC50 | ≥40 µg/mL
C/C(=C\Cn1cc(C)c(=O)[nH]c1=O)CO | - | - | - | EC50 | >100 µg/mL
Nc1ncnc2c1ncn2C=C1CC1CO | - | plaque count | HFF | EC50 | 140 µM
CCOC(=O)Sc1nnc(-c2cn(-c3ccccc3)nc2-c2ccccc2)n1N | KOS (TK-) | cytopathic effect | HEL | EC50 | >16 µg/mL
Cn1cc(NC(=O)c2cc(NC(=O)c3cc(NC=O)cn3C)cn2C)cc1C(=O)NCC(=N)N | - | plaque count | BSC-1 | EC50 | <200 µg/mL
C[C@H]1C/C=C/C(O)C/C=C/C(=O)Cc2c(Cl)c(O)cc(O)c2C(=O)O1 | Strain F | cytopathic effect | VERO | EC50 | 6 µM
Nc1nc2c(ncn2[C@@H]2C[C@H](CO)[C@H]2CO)c(=O)[nH]1 | KOS | plaque count | WI-38 | EC50 | 0.4–0.8 µM
COC(=O)[C@H](C)NP(=O)(OC[C@H]1C/C1=C/n1cnc2c(N)nc(N)nc21)Oc1ccccc1 | - | cytopathic effect | HFF | EC50 | 2.7 µM
CC[C@]1(Br)C(=O)NC(=O)N([C@H]2C[C@H](O)[C@@H](CO)O2)[C@@H]1OC | E-377 | cytopathic effect | HFF | EC50 | 0.29 µM
CCOC(=O)C1Sc2nnc(-c3cn(-c4ccccc4)nc3-c3ccccc3)n2NC1=O | KOS (TK-) | cytopathic effect | HEL | EC50 | >80 µg/mL
C/C(=C\Cn1ccc(=O)[nH]c1=O)CO | - | - | - | EC50 | >100 µg/mL
O=C(O)P(=O)(O)O | F-FIAU-C1 | plaque count | VERO | EC50 | 32 µM
Cc1cn([C@@H]2OC[C@H](CO)[C@H]2O)c(=O)[nH]c1=O | KOS TK- acyclovir-resistant | cytopathic effect | E6SM | EC50 | 240 µg/mL
O=c1[nH]c(=O)n(CC=C(CO)CO)cc1I | - | - | - | EC50 | 21.1 µg/mL
CC[C@@]1(Cl)C(=O)NC(=O)N([C@H]2C[C@H](O)[C@@H](CO)O2)[C@H]1OC | E-377 | cytopathic effect | HFF | EC50 | >50 µM

For reference, 6 entries again:

{"smiles": "O=C(O)P(=O)(O)O", "strain or isolate": "F-FIAU-C1", "read by": "plaque count", "cell line": "VERO", "endpoint": "EC50", "result": "32 µM"}
{"smiles": "Nc1ncnc2c1ncn2[C@@H]1O[C@H](CO)[C@@H](O)[C@@H]1O", "strain or isolate": "KOS", "read by": "cytopathic effect", "cell line": "PRK", "endpoint": "EC50", "result": "4 µg/mL"}
{"smiles": "Nc1ncnc2c1ncn2[C@@H]1O[C@H](CO)[C@@H](O)[C@H]1N", "strain or isolate": "KOS", "read by": "cytopathic effect", "cell line": "PRK", "endpoint": "EC50", "result": "≥40 µg/mL"}
{"smiles": "Nc1nc(Cl)c2ncn(/C=C3/C[C@H]3CO)c2n1", "read by": "cytopathic effect", "cell line": "HFF", "endpoint": "EC50", "result": "76.4 µM"}
{"smiles": "N[C@@H]1[C@H](O)[C@@H](CO)O[C@H]1n1ccc(=O)[nH]c1=O", "strain or isolate": "KOS", "read by": "cytopathic effect", "cell line": "PRK", "endpoint": "EC50", "result": ">200 µg/mL"}
{"smiles": "O=c1[nH]c(=O)n([C@H]2C[C@H](O)[C@@H](CO)O2)cc1I", "strain or isolate": "KOS", "read by": "cytopathic effect", "cell line": "HSF", "endpoint": "EC50", "result": "0.4 µg/mL"}